Laboratory results published in ChEMBL document CHEMBL6087459 (J Med Chem, 2025).

Tested on: Cryptosporidium parvum
Assay: Antiparasitic activity against Cryptosporidium parvum Iowa oocyst infected in human HCT-8 cells assessed as reduction in asexual replication pre-infected with cells for 3 hrs followed by compound addition and measured after 48 hrs by staining based automated fluorescence microscopic analysis
Conditions: strain Iowa

In the case of `CCOP(=O)(CC)Oc1ccc(-c2nc(NCc3ccc(F)cc3)c3c(CC)nn(C)c3n2)cc1` (stereo unspecified), the pEC50 was 5.36.

pEC50: −log10 of the molar value.
